Kd data for five substances are collected here from patent US20170233441A1.

Test [1] deals with BG505 SOSIP.664. The experiment in a line: SPR.
The target of test [2] is BG505 SOSIP.664 Trimer. Kind of test: SPR; 2G12 capture. (SPR reads the build-up and loss of mass on a sensor chip optically.)
Test [3] concerns the target BG505 SOSIP.664. Kind of test: BLI. (In BLI a coated tip is dipped into the sample, and binding shifts an interference pattern.)

Consider 8ANC195, for which the dissociation constant Kd (in general, the free concentration of one partner at which half of the binding sites on the other are occupied at equilibrium, for simple one-to-one binding) in test [1] amounted to 9.54 nM. The same measure, in the same setting: to PGT128 belongs 16.2 nM.

Regarding PGT145, the Kd in test [2] is 22.8 nM. Regarding VRC26.09, the equilibrium dissociation constant (Kd) is 22.9 nM in test [1] and 40.3 nM in test [3]. For b12, the equilibrium dissociation constant (Kd) in test [1] was over 1000 nM; in test [3], over 4000 nM.
